Entries after “also recorded” stand apart in the source; their conditions may differ.
What was measured:
mice [1] = assay: Autonomic movement (open field, tail suspension and forced swimming tests together); conditions: 5 mg/kg i.p., vs control
mice [2] = assay: Forced swimming test; conditions: 5 mg/kg i.p., 5 min, n = 10; vs control
C. elegans [3] = assay: Body bending and head swing frequency of C. elegans; conditions: L1-larvae, 22 °C, 48 h, counted within 1 min, three wells; vs M9 buffer control
C. elegans [4] = assay: Reproduction of C. elegans; conditions: L4-larvae, 22 °C, 72 h; vs M9 buffer control
C. elegans [5] = assay: Hatching inhibition rate of C. elegans; conditions: C. elegans eggs, 22 °C, 24 h, three wells; vs M9 buffer control
mice [6] = assay: Tail suspension test; conditions: 5 mg/kg i.p., 5 min, n = 10; vs control
human α7 nAChR = human α7 nAChR (Homo sapiens, UniProt P36544); assay: Microscale thermophoresis (MST) affinity; conditions: read-out: EC50 (affinity with functional α7 nAChR), Cy5-labelled human functional α7 nAChR, Monolith NT.115, 5 min, room temperature
mice [7] = assay: Open field test; conditions: 5 mg/kg i.p., 5 min, n = 10; vs control
mice [8] = assay: Hot-plate test model; conditions: i.p., cotx 2.1 1, cotx 2.13 1.5 mg/kg, vs BuIA 1.5 and cotx 1.1 2 mg/kg
[9] = system: calcium channel on the DRG cell surface; assay: Whole-cell patch clamp (QPatch-16); conditions: cotx 2.1 and cotx 2.13 vs BuIA and cotx 1.1

Protein sequences, listed by entry. Tags and fused reporters are not part of them. Residues count along the entry.
UniProt P36544, 23-502 limits assumed: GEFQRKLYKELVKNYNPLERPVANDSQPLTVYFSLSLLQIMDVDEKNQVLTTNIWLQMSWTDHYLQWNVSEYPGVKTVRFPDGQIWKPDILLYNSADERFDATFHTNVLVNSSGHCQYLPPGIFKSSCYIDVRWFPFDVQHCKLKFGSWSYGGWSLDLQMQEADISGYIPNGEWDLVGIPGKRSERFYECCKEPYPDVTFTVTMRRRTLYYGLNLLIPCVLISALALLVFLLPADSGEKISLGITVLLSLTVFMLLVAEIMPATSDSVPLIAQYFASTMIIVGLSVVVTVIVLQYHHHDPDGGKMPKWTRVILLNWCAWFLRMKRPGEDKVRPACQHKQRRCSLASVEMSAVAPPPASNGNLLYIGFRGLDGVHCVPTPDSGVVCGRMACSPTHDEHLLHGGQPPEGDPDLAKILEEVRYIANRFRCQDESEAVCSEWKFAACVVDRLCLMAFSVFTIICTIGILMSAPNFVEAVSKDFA

CC(C)C[C@@H]1NC(=O)[C@H](C(C)C)NC(=O)[C@H](C)NC(=O)[C@@H]2CSSC[C@H](NC(=O)CN)C(=O)N[C@@H](CSSC[C@@H](C(N)=O)NC(=O)[C@H](Cc3ccc(O)cc3)NC1=O)C(=O)N[C@@H](CO)C(=O)N[C@@H]([C@@H](C)O)C(=O)N1CCC[C@H]1C(=O)N1CCC[C@H]1C(=O)N2
autonomic movement, in words (mice [1]): weakened the autonomous movement of mice significantly (p < 0.05)
forced swimming times, in words (mice [2]): significantly lower than the other groups (p < 0.05)
body bending frequency, in words (C. elegans [3]): significantly lower than the other groups (P<0.05); also recorded: significantly lower than the control group and analogue groups (P<0.05)
head swing frequency, in words (C. elegans [3]): significantly lower than the other groups (P<0.05); also recorded: significantly lower than the control group and analogue groups (P<0.05)
reproduction (number of offspring), in words (C. elegans [4]): significantly lower than the other groups (P<0.05); also recorded: significantly lower than the control group and analogue groups (P<0.05)
hatching inhibition rate, in words (C. elegans [5]): significantly higher than the other groups (P<0.05); also recorded: significantly higher than the control group and analogue groups (P<0.05)
tail suspended motion times, in words (mice [6]): significantly lower than the other groups (p < 0.05)
EC50 (human α7 nAChR): 19.7 nM
open field: center distance, in words (mice [7]): significantly lower than the other groups (p < 0.05)
open field: frequency entering peripheral area, in words (mice [7]): significantly lower than the other groups (p < 0.05)
open field: peripheral distance, in words (mice [7]): significantly lower than the other groups (p < 0.05)
open field: residence time in central area, in words (mice [7]): significantly lower than the other groups (p < 0.05)
open field: residence time in peripheral area, in words (mice [7]): significantly higher than the other groups (p < 0.05)
open field: total distances, in words (mice [7]): significantly lower than the other groups (p < 0.05)

C[C@@H](O)[C@@H]1NC(=O)[C@H](CO)NC(=O)[C@H](CO)NC(=O)[C@@H](NC(=O)CN)CSSC[C@@H](C(N)=O)NC(=O)[C@@H]2CCCN2C(=O)[C@@H]2CCCN2C1=O
autonomic movement, in words (mice [1]): did not affect the autonomic movement of mice

CC(C)C[C@@H]1NC(=O)[C@H](C(C)C)NC(=O)[C@H](C)NC(=O)[C@H](CO)NC(=O)[C@@H]2CCCN2C(=O)[C@@H]2CCCN2C(=O)[C@H]([C@@H](C)O)NC(=O)[C@H](CO)NC(=O)[C@@H](NC(=O)[C@H](CO)NC(=O)CN)CSSC[C@@H](C(N)=O)NC(=O)[C@H](Cc2ccc(O)cc2)NC1=O
efficacy time (onset) compared with BuIA and cotx 1.1, in words (mice [8]): quicker than BuIA and cotx 1.1
autonomic movement, in words (mice [1]): did not affect the autonomic movement of mice
inhibition of calcium channel compared among BuIA and analogues, in words [9]: stronger than BuIA and cotx 1.1; also recorded: significantly higher than BuIA and cotx 1.1

CC(C)C[C@@H]1NC(=O)[C@H](C(C)C)NC(=O)[C@H](C)NC(=O)[C@H](CC(=O)O)NC(=O)[C@@H]2CCCN2C(=O)[C@@H]2CCCN2C(=O)[C@H]([C@@H](C)O)NC(=O)[C@H](CO)NC(=O)[C@@H](NC(=O)[C@@H](N)CCCCN)CSSC[C@@H](C(N)=O)NC(=O)[C@H](Cc2ccc(O)cc2)NC1=O
efficacy time (onset) compared with BuIA and cotx 1.1, in words (mice [8]): quicker than BuIA and cotx 1.1
autonomic movement, in words (mice [1]): did not affect the autonomic movement of mice
inhibition of calcium channel compared among BuIA and analogues, in words [9]: stronger than BuIA and cotx 1.1; also recorded: significantly higher than BuIA and cotx 1.1
